Measured values from several laboratories, pooled; numbers as filed in NIAID ChemDB.

Shared fields: growth or infection tests; species: Aspergillus niger; endpoint: zone

Rows are shuffled and stem from different studies. Blank or dashed fields: not listed here. Zones are inhibition diameters on agar.

structure,strain or isolate,method,dose,value
Cc1c(Cc2ccc(Cl)cc2)nc(SCCN2C(=O)c3ccccc3C2=O)[nH]c1=O,NRRL 599,agar diffusion / agar,200 µg/disc,<10 mm
CSC1=NC(c2ccccc2[N+](=O)[O-])C(C#N)=C(N)N1,MTCC 282,agar diffusion,25 µg/mL,13 mm
CCc1c(Cc2ccc(Cl)cc2)nc(SCCN2CCCCC2)[nH]c1=O,NRRL 599,agar diffusion / agar,200 µg/disc,21 mm
CC1(C)C=C2[C@H]3CC[C@@H]4[C@@]5(C)CC[C@H](O)C(C)(C)[C@@H]5CC[C@@]4(C)[C@]3(C)CC[C@@]2(C)CC1,UPCC 3701,agar diffusion,30 mg/disc,0 mm
COc1ccc(C2=NNc3c4ccccc4c4c5cc(Cl)ccc5nc-4n3C2)cc1,MTCC 281,agar diffusion / visual reading,3.125 µg/mL,8 mm
CS(=O)(=O)c1nc(N)c(C#N)c(-c2cccc([N+](=O)[O-])c2)n1,MTCC 282,agar diffusion,50 µg/mL,18 mm
Cc1ccc(/C=C/C(=NCCCn2ccnc2)c2ccccc2O)cc1.[Cl][Cu],,agar diffusion,100 µg/mL,16 mm
N#C/C(=C\c1ccc(Br)cc1)c1ccccc1,,agar diffusion,100 µg,0 mm
O=c1[nH]n(-c2nc3[nH]c4ccc(Cl)cc4c3c3ccccc23)c(=O)c2ccccc12,MTCC 281,agar diffusion / visual reading,6.25 µg/mL,4 mm
N#Cc1ccc(Nc2nc(Oc3ccnc4ccccc34)nc(N3CCN(Cc4ccccc4)CC3)n2)cc1C(F)(F)F,MTCC 282,agar,100 µg/mL,<10 mm
COc1ccc2nc3n4c(c5ccccc5c-3c2c1)NN=C(c1ccc(C)cc1)C4,MTCC 281,agar diffusion / visual reading,12.5 µg/mL,8 mm
CN(C)C=O,,,30 µg/mL,6 mm
CN(C)c1ccc(/C=C(\C#N)c2ccc([N+](=O)[O-])cc2)cc1,,agar diffusion,100 µg,0 mm
Cc1ccc2c(c1)C(C=NNC(=O)N1c3ccccc3C=Cc3ccccc31)C(c1ccccc1)=N2,MTCC 281,agar diffusion,1000 µg/mL,14 mm
N#Cc1ccc(Nc2nc(Oc3ccnc4ccccc34)nc(N3CCC(Cc4ccccc4)CC3)n2)cc1C(F)(F)F,MTCC 282,agar,100 µg/mL,<10 mm
CCc1c(Cc2ccc(Cl)cc2)[nH]c(=S)[nH]c1=O,NRRL 599,agar diffusion / agar,200 µg/disc,<10 mm
Cc1ccc2[nH]c3nc(NNC(=O)c4ccccc4C(=O)O)c4ccccc4c3c2c1,MTCC 281,agar diffusion / visual reading,25 µg/mL,10 mm
COc1ccc(-c2nc(S(C)(=O)=O)nc(N)c2C#N)cc1,MTCC 282,agar diffusion,25 µg/mL,18 mm
CC1(C)C=C2C3CCC4[C@@]5(C)CC[C@H](OC(=O)/C=C\c6ccc(O)cc6)C(C)(C)C5CC[C@@]4(C)[C@]3(C)CC[C@@]2(C)CC1,UPCC 3701,agar diffusion,30 mg/disc,0 mm
CCc1c(Cc2ccc(OC)c(OC)c2)nc(SCCN2CCCCC2)[nH]c1=O,NRRL 599,agar diffusion / agar,200 µg/disc,25 mm
CSC1=NC(c2ccccc2)C(C#N)=C(N)N1,MTCC 282,agar diffusion,25 µg/mL,15 mm
Oc1ccccc1C(/C=C/c1ccccc1)=NCCCn1ccnc1.[Cl][Cu],,agar diffusion,100 µg/mL,16 mm
Cc1ccc2nc3n4c(c5ccccc5c-3c2c1)NN=C(c1ccc(Cl)cc1)C4,MTCC 281,agar diffusion / visual reading,3.125 µg/mL,10 mm
COc1ccc(C2N=C(SC)NC(N)=C2C#N)cc1,MTCC 282,agar diffusion,100 µg/mL,15 mm
O=C(NN1C(=O)CSC1C1C(c2ccccc2)=Nc2ccc(Cl)cc21)N1c2ccccc2C=Cc2ccccc21,MTCC 281,agar diffusion,750 µg/mL,13 mm
N#C/C(=C\c1ccccc1)c1ccc([N+](=O)[O-])cc1,,agar diffusion,100 µg,0 mm
CC(C)N1CCN(c2nc(Nc3ccc(C#N)c(C(F)(F)F)c3)nc(Oc3ccnc4ccccc34)n2)CC1,MTCC 282,agar,100 µg/mL,<10 mm
CSC1=NC(/C=C/c2ccccc2)C(C#N)=C(N)N1,MTCC 282,agar diffusion,100 µg/mL,16 mm
Oc1ccccc1C(/C=C/c1ccccc1)=NCCCn1ccnc1,,agar diffusion,100 µg/mL,14 mm
N#Cc1ccc(Nc2nc(Oc3ccnc4ccccc34)nc(N3CCN(c4ccccc4)CC3)n2)cc1C(F)(F)F,MTCC 282,agar,100 µg/mL,<10 mm
N#C/C(=C\c1ccccc1)c1ccccc1,,agar diffusion,100 µg,0 mm
CCc1c(Cc2ccc(OC)c(OC)c2)nc(SCCN(CC)CC)[nH]c1=O,NRRL 599,agar diffusion / agar,200 µg/disc,25 mm
N#C/C(=C\c1ccc([N+](=O)[O-])cc1)c1ccccc1,,agar diffusion,100 µg,0 mm
CS(=O)(=O)c1nc(N)c(C#N)c(/C=C\c2ccccc2)n1,MTCC 282,agar diffusion,100 µg/mL,20 mm
Cc1ccc(/C=C/C(=NCCCn2ccnc2)c2ccccc2O)cc1,,agar diffusion,100 µg/mL,14 mm
COc1ccc2[nH]c3nc(-n4[nH]c(=O)c5ccccc5c4=O)c4ccccc4c3c2c1,MTCC 281,agar diffusion / visual reading,3.125 µg/mL,13 mm
CCc1c(Cc2ccc(OC)c(OC)c2)nc(SCCN2CCOCC2)[nH]c1=O,NRRL 599,agar diffusion / agar,200 µg/disc,24 mm
O=C(NN=CC1C(c2ccccc2)=Nc2ccc(Cl)cc21)N1c2ccccc2C=Cc2ccccc21,MTCC 281,agar diffusion,750 µg/mL,12 mm
Cc1ccc(C2=NNc3c4ccccc4c4c5cc(C)ccc5nc-4n3C2)cc1,MTCC 281,agar diffusion / visual reading,12.5 µg/mL,11 mm
CC[C@H]1OC(=O)[C@H](C)[C@@H](O[C@H]2C[C@@](C)(OC)[C@@H](O)[C@H](C)O2)[C@H](C)[C@@H](O[C@@H]2O[C@H](C)C[C@H](N(C)C)[C@H]2O)[C@](C)(O)C[C@@H](C)CN(C)[C@H](C)[C@@H](O)[C@]1(C)O,,agar diffusion,25 µg,18 mm
CS(=O)(=O)c1nc(N)c(C#N)c(-c2ccccc2)n1,MTCC 282,agar diffusion,100 µg/mL,21 mm
Cc1ccc2nc3n4c(c5ccccc5c-3c2c1)NN=C(c1ccccc1)C4,MTCC 281,agar diffusion / visual reading,6.25 µg/mL,8 mm